Measurements from paper PMC11946510, “Binding of small molecules at the P-stalk site of ricin A subunit trigger conformational changes that extend into the active site” (2025).

Legend:
ricin holotoxin = ricin holotoxin (Ricinus communis, UniProt P02879); test: Protection against cytotoxicity of ricin holotoxin in Vero cells, CellTiter-Glo viability assay; conditions: 48 h
RTA = RTA (Ricinus communis, UniProt P02879); test: Fluorescence anisotropy (FA) competitive binding assay: displacement of fluorescent P11 peptide from RTA; conditions: binding energy divided by the number of nonhydrogen atoms

CCc1cccc(C)c1-c1ccc(C(=O)O)s1
Fold increase in ricin viability EC50 relative to ricin alone (ricin holotoxin; 125 μM compound): 5 fold | Fold increase in ricin viability EC50 relative to ricin alone (ricin holotoxin; 500 μM compound): > 500 fold | LE (ligand efficiency) (RTA): 0.46
